Reference: publication PMC4917206, “Chemical Modification of Influenza CD8+ T-Cell Epitopes Enhances Their Immunogenicity Regardless of Immunodominance” (PLoS ONE, 2016)
Square brackets hold non-standard residues; d marks the D form. Ends that are not written are not given here. Phg = N[C@H](C(=O)O)c1ccccc1

Molecular target: T1, HLA-A*0201 (Homo sapiens, UniProt P04439, D140Y/D185E/D98H/E176V/E277Q/G131W/G231S/I119V/I121R/I166T/I218V/L300P/L318F/N151K/N90K/P208A/P217A/Q86G/Q94H/R138H/R169H/T345S)
T1 construct: Soluble MHC was dissolved in PBS containing 0.5 mg/ml bovine γ-globulin; made in house
Format: binding

GILGFVFT[ALG] [G13]
FP binding score, percentage inhibition of tracer peptide binding, 4h: 88%
FP binding score, percentage inhibition of tracer peptide binding, 24h: 88%

GILGFVFT[CpALA] [G3]
FP binding score, percentage inhibition of tracer peptide binding, 4h: 90%
FP binding score, percentage inhibition of tracer peptide binding, 24h: 90%

GILGFVFT[PRG] [G17]
FP binding score, percentage inhibition of tracer peptide binding, 4h: 88%
FP binding score, percentage inhibition of tracer peptide binding, 24h: 88%

G[NLE]LGFVFTL [G16]
FP binding score, percentage inhibition of tracer peptide binding, 4h: 91%
FP binding score, percentage inhibition of tracer peptide binding, 24h: 90%

N[NLE]LSTVLGV [N53]
FP binding score, percentage inhibition of tracer peptide binding, 4h: 66%
FP binding score, percentage inhibition of tracer peptide binding, 24h: 61%

[4-FPHE]MYSDFHF[2-AOC] [F5]
FP binding score, percentage inhibition of tracer peptide binding, 4h: 95%
FP binding score, percentage inhibition of tracer peptide binding, 24h: 94%

[CSME]ILGFVFTL [G11]
FP binding score, percentage inhibition of tracer peptide binding, 4h: 72%
FP binding score, percentage inhibition of tracer peptide binding, 24h: 70%

[PHG][2-AOC]LSTVLGV [N172]
FP binding score, percentage inhibition of tracer peptide binding, 4h: 89%
FP binding score, percentage inhibition of tracer peptide binding, 24h: 86%

[Phg]ILGFVFTL [G7]
FP binding score, percentage inhibition of tracer peptide binding, 4h: 96%
FP binding score, percentage inhibition of tracer peptide binding, 24h: 94%
